# PubChem BioAssay AID504761, Drosophila RNAi Screening Center | 2011
# Screen: 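Genome-wide fly cell screen for genes dengue virus requires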 (primary screen)
# Cells: D.Mel-2 cells from Drosophila
# Reagent: long dsRNA against Drosophila genes
# Conditions: infection with dengue virus type 2; dose and infection time not stated
# Detection: 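Cells stained for dengue envelope protein and imaged; percent of infected cells per well on duplicate plates, ranked by infection, with stained nuclei counted for cell number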
# Scale: infection score: higher = more virus-infected cells; cell count: higher = more cells in the well
# Active means: 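Low infection ranks in the two replicates (chance level up to 0.065) followed by a retest with a 1.5-fold or larger significant decrease, p below 0.05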
# Meaning of the calls: active = confirmed: knock-down lowers infection; inactive = not picked or not confirmed
# In all, the deposit lists about 22,000 reagents; shown is an unselected part of those that have a named target and a result. Over the whole deposit, 116 (0.52%) got an active call. 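Calls depend on retest data that are not deposited; infection was ranked per plate without normalising between plates; the unit of the infection score is not given.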 The raw values are shown without normalisation. Reagents against one gene are numbered here. Not stated in the record: the amount of reagent, the time to read-out.
Target gene,reagent,"infection score, replicate 1","infection score, replicate 2","cell count, replicate 1","cell count, replicate 2",outcome
casp (caspar),1,12.9,21.6,5041,4567,inactive
CG10710,1,1.79,1.07,6247,6465,inactive
sty (sprouty),1,2.33,8.82,5021,5453,inactive
sty (sprouty),2,4.73,3.08,6105,6107,inactive
CG18788,1,4.99,4.38,6149,6047,inactive
AttC (Attacin-C),1,10.7,19.7,6441,5687,inactive
AttC (Attacin-C),2,5.65,7.17,6390,6580,inactive
CG42254 (retired record),1,16.6,9.4,5578,6768,inactive
Spn28Dc (Serpin 28Dc),1,1.75,9.03,6415,2968,inactive
GstT2 (Glutathione S transferase T2),1,1.87,7.37,6990,6558,inactive
exd (extradenticle),1,5.84,16.6,6577,6020,inactive
exd (extradenticle),2,3.17,11.3,6457,3015,inactive
CG9471,1,1.23,12.7,6445,6241,inactive
CG9471,2,8.98,8.51,5693,5841,inactive
CG1344,1,21.6,39.2,6410,5816,inactive
mnd (minidiscs),1,4.47,2.14,5551,6266,inactive
Lrr47 (Leucine-rich repeat 47),1,1.87,2.38,6514,6397,inactive
CG15336,1,1.22,1.91,6466,6704,inactive
CG15336,2,9.53,4.99,6351,6710,inactive
TfIIA-S-2,1,2.14,1.39,6552,6472,inactive

Part of the list above in another layout:
| Target gene | reagent | infection score, replicate 1 | infection score, replicate 2 | cell count, replicate 1 | cell count, replicate 2 | outcome |
| --- | --- | --- | --- | --- | --- | --- |
| exd (extradenticle) | 1 | 5.84 | 16.6 | 6577 | 6020 | inactive |
| exd (extradenticle) | 2 | 3.17 | 11.3 | 6457 | 3015 | inactive |
| CG9471 | 1 | 1.23 | 12.7 | 6445 | 6241 | inactive |
| CG9471 | 2 | 8.98 | 8.51 | 5693 | 5841 | inactive |
| CG1344 | 1 | 21.6 | 39.2 | 6410 | 5816 | inactive |
| mnd (minidiscs) | 1 | 4.47 | 2.14 | 5551 | 6266 | inactive |
| Lrr47 (Leucine-rich repeat 47) | 1 | 1.87 | 2.38 | 6514 | 6397 | inactive |

Next results follow:
Target gene,reagent,"infection score, replicate 1","infection score, replicate 2","cell count, replicate 1","cell count, replicate 2",outcome
Syx1A (Syntaxin 1A),1,3.48,4.07,3136,3343,inactive
Syx1A (Syntaxin 1A),2,2.61,14.3,3723,4273,inactive
mRpL14 (mitochondrial ribosomal protein L14),1,16.5,3.79,5269,5535,inactive
mRpL14 (mitochondrial ribosomal protein L14),2,14.2,7.21,5181,6023,inactive
scaRNA:MeU5-C46 (small Cajal body-specific RNA : MeU5-C46),1,3.09,3.25,6435,6590,inactive
CG17221,1,2.43,25.6,6245,6056,inactive
CG17221,2,7.17,29.6,6245,6781,inactive
Cyp6g1 (Cytochrome P450 6g1),1,4.96,8.01,6235,6681,inactive
CG8778,1,11.8,7.16,6628,7169,inactive
mh (maternal haploid),1,1.62,0.96,6553,6552,inactive
DCP1 (Decapping protein 1),1,18.7,15.9,5686,4478,inactive
DCP1 (Decapping protein 1),2,1.56,15.8,6785,5638,inactive
Gbs-76A (Glycogen binding subunit 76A),1,14.8,6.97,5776,6775,inactive
CG31861,1,1.8,9.54,6165,6455,inactive
CG31861,2,7.26,7.11,5826,5426,inactive
CG15237,1,9.08,9.85,6181,5230,inactive
corto,1,1.23,5.12,5771,644,inactive
corto,2,1.08,1.37,6489,6446,inactive
cos (costa),1,16.7,7.81,6189,6488,inactive
cos (costa),2,12.4,11.1,5703,4574,inactive
CG34232,1,0.52,16.8,6325,5790,inactive
HSPBAP1 (HSPB1 associated protein 1),1,5.72,17.5,6693,5800,inactive
LUBEL (Linear Ubiquitin E3 ligase),1,1.55,4.93,6600,6892,inactive
LUBEL (Linear Ubiquitin E3 ligase),2,40.1,22.1,5909,6031,inactive
Art6 (Arginine methyltransferase 6),1,1.93,1,6574,6599,inactive
DNaseII (Deoxyribonuclease II),1,,9.71,412,4553,inactive
CG15012,1,5.48,4.72,6020,6119,inactive
CG9302,1,4.39,1,6557,6473,inactive
CG14764,1,1.23,1.26,6436,6286,inactive
CG14764,2,9.2,16.3,5850,5856,inactive
CG14764,3,9.83,5.62,6157,997,inactive
CG4991,1,2.18,13.2,6500,6436,inactive
CG14015,1,1.99,4.02,6891,6587,inactive
CG14015,2,9.28,1.81,6444,6145,inactive
CG9265,1,0.4,1.24,756,6544,inactive
CG9265,2,,7.85,580,6353,inactive
CG17270,1,8.9,7.65,6392,7019,inactive
Secp43 (tRNA Selenocysteine associated protein),1,1.58,16.4,6138,6499,inactive
Secp43 (tRNA Selenocysteine associated protein),2,6.08,4.09,6430,5845,inactive
